Experimental data: PubChem BioAssay AID504761 (Drosophila RNAi Screening Center, 2011)
In all, the deposit lists about 22,000 reagents; this is a random part of those that have a named target and a result. Over the whole deposit, 116 (0.52%) were called active. 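Calls depend on retest data that are not deposited; infection was ranked per plate without normalising between plates; the unit of the infection score is not given.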 Raw values vary from plate to plate and are shown uncorrected. Unmarked entries are inactive. A plus sign joins genes that one reagent is predicted to hit. No sequences are given here. Not stated in the record: the amount of reagent, the time to read-out.

Screen: 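Insect host genes that dengue virus relies on to spread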 (primary screen)
Cells: D.Mel-2 cells from Drosophila
Reagent: long dsRNA against Drosophila genes
Treatment: infection with dengue virus type 2; dose and infection time not stated
Measured: 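Cells stained for dengue envelope protein and imaged; percent of infected cells per well on duplicate plates, ranked by infection, with stained nuclei counted for cell number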
Scale: infection score: higher = more virus-infected cells; cell count: higher = more cells in the well
Active means: 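Very low infection ranking in both replicate wells (chance probability at most 0.065), then a retest showing infection dropped 1.5-fold or more at p below 0.05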
Meaning of the calls: active = confirmed: knock-down lowers infection; inactive = not picked or not confirmed

no.	gene	DRSC id	infection score, replicate 1	infection score, replicate 2	cell count, replicate 1	cell count, replicate 2
1	CG14362	DRSC14824	7.69	1.62	5998	5999
2	tutl	DRSC00441	1.28	17	6243	6516
3	tutl	DRSC00442	1.7	5.53	6526	6649
4	tutl	DRSC00443	1.12	2.29	6615	6301
5	tutl	DRSC27605	9.25	8.06	6872	6696
6	CG6418	DRSC10633	10.1	22.9	4571	5088
7	CG6418	DRSC27621	4.66	2.2	6735	7144
8	loh	DRSC01122	5.8	0.48	6495	6253
9	loh	DRSC02943	7.1	7.38	5791	5811
10	BomS4	DRSC22509	1.18	11.1	5858	6581
11	CG9522	DRSC20197	11.5	20.5	3982	5097
12	GluClalpha	DRSC16680	4.05	4.38	2373	6489
13	CG2604	DRSC12313	8.36	6.8	6795	6951
14	CG2604	DRSC29919	11.4	23.2	6542	6387
15	CG4582	DRSC15605	1.87	5.64	1122	2092
16	Oatp58Dc	DRSC04363	3.7	16.5	6316	6045
17	Oatp58Dc	DRSC24688	5.44	1.55	5644	6465
18	CG12990	DRSC19510	10.9	3.71	6759	6821
19	RhoGEF2	DRSC07531	8.91	7.68	5969	6358
20	RhoGEF2	DRSC29373	5.77	10.3	1421	5578
21	CG14130	DRSC10134	1.13	7.79	6523	6496
22	CG13625	DRSC14627	3.34	14.3	5635	5678
23	CheA75a	DRSC10807	12.5	10.4	6019	5988
24	CG15841 (retired record) + Acp33A	DRSC01859	4.18	6.15	6270	6370
25	Rtel1	DRSC18343	1.18	2.7	6681	6863
26	Rtel1	DRSC26293	22.4	8.32	5111	5840
27	CG33116	DRSC02045	21.8	11.1	6199	6712
28	Orc1	DRSC07496	0.8	1.62	6415	6237
29	CG15356	DRSC00386	8.06	6.79	5982	6301
30	Taf3	DRSC17170	1.52	4	6790	6927
31	Taf3	DRSC29650		36.7	365	4085
32	danr	DRSC14651	3.55	8.99	6792	5970
33	danr	DRSC27029	2.8	9.58	6826	6295
34	eIF3d1	DRSC16938	1.78	4.62	2475	865
35	Shrm	DRSC06438	10.7	18.3	6811	6203
36	Shrm	DRSC07221	34	14	4678	6241
37	Shrm	DRSC23067	1.37	26.3	6111	5763
38	Shrm	DRSC25072	3	7.26	6208	5606
39	Shrm	DRSC27498	1.58	4.14	6824	869
40	cue	DRSC08248	13.6	11.6	5303	1584
41	mRNA-cap	DRSC19789	40.8	12.1	3432	4040
42	CSN1a	DRSC01951	13	5.34	6140	6666
43	tor	DRSC07707	4.02	7.19	6564	2196
44	CG11123	DRSC06040	12.7	6.06	6983	874
45	CG11123	DRSC28420	15.7	15.6	5742	2679
46	aurB	DRSC03548	20.8	20.1	1123	633
47	aurB	DRSC23324	2.71	4.71	998	891
48	nsr	DRSC04427	2.42	9.98	6375	5351
49	nsr	DRSC22806	1.57	7.59	6036	6495
50	Cyp4e3	DRSC03306	12.6	16.8	5689	5433
51	Cyp4e3	DRSC26425	1.82	0.81	5374	6647
52	CG14120	DRSC10124	1.61	0.62	6105	6147
53	CG14120	DRSC27955	3.88	10.6	6445	6100
54	CG8072	DRSC10960	3.67	2.14	5563	5457
55	Fdh	DRSC16670	11.2	11.3	6541	6418
56	CG15739	DRSC19705	1.6	7.47	6321	6717
57	CG15739	DRSC28638	21.8	17.9	5283	6286
58	CG7631	DRSC01873	4.71	1.49	6499	6364

Records above whose target name begins with R or r:
gene	DRSC id	infection score, replicate 1	infection score, replicate 2	cell count, replicate 1	cell count, replicate 2
RhoGEF2	DRSC07531	8.91	7.68	5969	6358
RhoGEF2	DRSC29373	5.77	10.3	1421	5578
Rtel1	DRSC18343	1.18	2.7	6681	6863
Rtel1	DRSC26293	22.4	8.32	5111	5840
